Laboratory results: PubChem BioAssay AID624099 (ICCB-Longwood, 2012)
Here is a random part of about 21,000 reagents tested. 497 of them (2.4%) count as active. 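Higher z means weaker E2 silencing; only reporter increases were scored, and knock-downs that hurt cell survival may mask genuine repressor factors.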

Purpose: 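Human genes that papillomavirus E2 requires to repress the HPV18 LCR promoter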 (primary screen)
Cells: human C33A cervical carcinoma cells (HPV-negative) stably expressing BPV1 E2 and an HPV18 LCR luciferase reporter
Reagent: siRNA pool against human genes, 40 nM
Duration: 72 h
Read-out: 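Per-well luciferase luminescence, z-scored on each plate against the plate mean and SD with control wells left out, then averaged across three replicate plates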
Direction: mean z-score and z-score: higher = stronger reporter signal, weaker E2 silencing
Active means: 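Hit if mean z-score reaches 2 and two or more of three replicate z-scores also reach 2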

gene symbol,mean z-score,"z-score, replicate A","z-score, replicate B","z-score, replicate C",call
PSMB3,-1.48,-1.55,-1.42,-1.48,inactive
INCENP,0.59,0.72,0.58,0.46,inactive
BMF,2.41,2.31,2.54,2.38,active
CGN,0.37,0.46,0.9,-0.25,inactive
TTC28,-0.39,-0.51,-0.46,-0.19,inactive
LOC401180 (retired record),-0.38,-0.21,-0.53,-0.41,inactive
ALAD,0.41,0.21,0.33,0.69,inactive
RCL1,-0.43,-0.25,-0.39,-0.64,inactive
KRT14,1.39,1.29,1.5,1.38,inactive
ARRDC1-AS1,0.79,0.68,0.61,1.06,inactive
RSPH14,0.17,0.08,0,0.42,inactive
LOC727756 (retired record),3.23,3.31,3.11,3.26,active
PPFIA2,-0.81,-0.75,-0.95,-0.75,inactive
LIPG,-0.41,-0.3,-0.25,-0.67,inactive
DGUOK,-0.15,-0.17,-0.11,-0.17,inactive
GSDMD,-0.86,-0.99,-0.83,-0.77,inactive
LARGE2,-0.34,-0.44,-0.16,-0.43,inactive
UXT,0.67,0.55,1,0.47,inactive
PI16,-0.71,-0.85,-0.57,-0.72,inactive
LINC01356,-0.24,-0.33,0.06,-0.45,inactive
NEMF,-0.62,-0.83,-0.71,-0.33,inactive
TRAP1,2.46,2.28,2.55,2.54,active
DSCR10,-0.71,-0.64,-0.63,-0.85,inactive
FAM168A,0.39,0.32,0.69,0.17,inactive
EXOC3,-1.63,-1.99,-1.46,-1.43,inactive
CSN3,-0.73,-1.12,-0.65,-0.41,inactive
ANKAR,0.08,-0.03,0.04,0.23,inactive
MTMR1,1.02,1.05,0.9,1.1,inactive
COX4I1,0.21,0.31,0.28,0.03,inactive
IL20RB,-1.38,-0.78,-1.52,-1.86,inactive
LOC391692 (retired record),0.13,-0.75,0.93,0.22,inactive
LOC401006 (retired record),0.52,0.83,0.2,0.54,inactive
B4GALT7,-0.88,-0.68,-0.87,-1.08,inactive
PREX1,-1.16,-0.61,-1.36,-1.53,inactive
BSND,-0.7,-0.75,-0.68,-0.66,inactive
CERS4,0.07,0.43,-0.32,0.09,inactive
ATP2B3,1.78,1.98,1.91,1.45,inactive
UBE2D3,0.6,0.98,0.23,0.6,inactive
LINC00692,1.33,1.24,1.39,1.37,inactive
ACTG1,-0.39,-0.36,-0.47,-0.33,inactive
VIL1,0.07,-0.2,0.35,0.06,inactive
LPAR6,0.43,0.55,0.25,0.48,inactive
NIPAL2,-0.61,-0.66,-0.6,-0.59,inactive
SBSN,0.39,0.39,0.16,0.62,inactive
GAS2,0,0.26,-0.25,0,inactive
PAF1,-0.7,-0.48,-0.89,-0.73,inactive
FNDC9,0.69,0.3,0.98,0.79,inactive
SGK2,-1.88,-1.7,-1.94,-2.02,inactive
GAB2,-0.69,-0.26,-1.09,-0.73,inactive
TOE1,2.41,2.62,2.45,2.17,active
PIGK,-0.51,-0.58,-0.45,-0.5,inactive
VXN,0.43,0.81,-0.09,0.55,inactive
PIP4K2A,-0.74,-1.16,-0.46,-0.62,inactive
DUSP21,2.04,1.96,2.03,2.14,active
LOC400523 (retired record),-1.11,-1.29,-1,-1.03,inactive
CSTB,-1.27,-1.21,-1.38,-1.21,inactive
TREH,-1.09,-1,-1.09,-1.18,inactive
THOC2,-2.31,-2.38,-2.4,-2.14,inactive
ANGPTL7,0.77,0.54,0.88,0.88,inactive
NUGGC,1.8,2.35,1.74,1.3,inactive
FBXO41,-0.88,-0.92,-0.91,-0.8,inactive
GBP3,-1.51,-1.47,-1.72,-1.33,inactive
LOC388587 (retired record),-1.61,-1.52,-1.54,-1.76,inactive
NR4A2,0.21,0.48,0.08,0.08,inactive
WRAP53,-2.27,-2.15,-2.22,-2.43,inactive
SVOPL,-0.37,-0.8,-0.28,-0.05,inactive
NFIA,-0.05,0.07,0.04,-0.27,inactive
OR8K1,-0.13,-0.3,-0.43,0.35,inactive
LAMC2,0.36,0.74,0.29,0.06,inactive
RGL2,2.39,2.3,2.48,2.38,active
PPP1R18,-1.2,-1.19,-1.31,-1.1,inactive
RFK,0.83,0.87,0.8,0.81,inactive
TRIM66,-0.84,-0.96,-0.99,-0.57,inactive

A stretch of the results above, as a working copy:
gene symbol,mean z-score,"z-score, replicate A","z-score, replicate B","z-score, replicate C",call
FNDC9,0.69,0.3,0.98,0.79,inactive
SGK2,-1.88,-1.7,-1.94,-2.02,inactive
GAB2,-0.69,-0.26,-1.09,-0.73,inactive
TOE1,2.41,2.62,2.45,2.17,active
PIGK,-0.51,-0.58,-0.45,-0.5,inactive
VXN,0.43,0.81,-0.09,0.55,inactive
PIP4K2A,-0.74,-1.16,-0.46,-0.62,inactive
DUSP21,2.04,1.96,2.03,2.14,active
LOC400523 (retired record),-1.11,-1.29,-1,-1.03,inactive
